Measurements reported in patent US20220259551A1, “METHODS OF OPTIMIZED EUGLENA FERMENTATION USING ENGINEERED TANK DESIGN” (NOBLEGEN INC., priority 2019, published 2022).

Tested on: Euglena gracilis Z
Assay: Effect of organic acids, with or without glucose, on Euglena growth in shake flasks (Example 9)
Type: cell-based
Conditions: for levels of organic acids in the media: low acid concentrations (0.0005-0.05 g/L), end of 48 h
[1] = higher acid concentrations (2-5 g/L), incubation 0 h
[2] = higher acid concentrations (2-5 g/L), incubation 48 h
[3] = higher acid concentrations (2-5 g/L), incubation 120 h
[4] = lower acid concentrations (0.0005-0.05 g/L), incubation 0 h
[5] = lower acid concentrations (0.0005-0.05 g/L), incubation 48 h

O=C(O)/C=C/C(=O)O [Fumarate only]
Fumarate conc. in media [1]: 3.46 g/L | Fumarate conc. in media [2]: 0.91 g/L | Fumarate conc. in media [3]: 1.55 g/L | Fumarate conc. in media [4]: 0.0007 g/L | Fumarate conc. in media [5]: 0.0003 g/L

O=C[C@H](O)[C@@H](O)[C@H](O)[C@H](O)CO [Glucose (Control)]
Fumarate conc. in media [1]: 0.00 g/L | Lactate conc. in media [1]: 0.01 g/L | Malate conc. in media [1]: 0.00 g/L | Pyruvate conc. in media [1]: 0.00 g/L | Succinate conc. in media [1]: 0.43 g/L | Fumarate conc. in media [2]: 0.00 g/L | Lactate conc. in media [2]: 0.00 g/L | Malate conc. in media [2]: 0.03 g/L | Pyruvate conc. in media [2]: 0.00 g/L | Succinate conc. in media [2]: 0.65 g/L | Fumarate conc. in media [3]: 0.00 g/L | Lactate conc. in media [3]: 0.00 g/L | Malate conc. in media [3]: 0.00 g/L | Pyruvate conc. in media [3]: 0.00 g/L | Succinate conc. in media [3]: 0.72 g/L | Fumarate conc. in media [4]: 0.0003 g/L | Lactate conc. in media [4]: 0.01 g/L | Malate conc. in media [4]: 0 g/L | Pyruvate conc. in media [4]: 0 g/L | Succinate conc. in media [4]: 0.4884 g/L | Fumarate conc. in media [5]: 0.0039 g/L | Lactate conc. in media [5]: 0 g/L | Malate conc. in media [5]: 0.0757 g/L | Pyruvate conc. in media [5]: 0 g/L | Succinate conc. in media [5]: 0.6744 g/L

CC(O)C(=O)O (stereo not shown) [Lactic acid only]
Lactate conc. in media [1]: 3.67 g/L | Lactate conc. in media [2]: 0.00 g/L | Lactate conc. in media [3]: 0.02 g/L | Lactate conc. in media [4]: 0.05 g/L | Lactate conc. in media [5]: 0 g/L

O=C(O)CC(O)C(=O)O (stereo not shown) [Malate only]
Malate conc. in media [1]: 4.78 g/L | Malate conc. in media [2]: 0.73 g/L | Malate conc. in media [3]: 0.90 g/L | Malate conc. in media [4]: 0.049 g/L | Malate conc. in media [5]: 0 g/L

CC(=O)C(=O)O [Pyruvate only]
Pyruvate conc. in media [1]: 1.31 g/L | Pyruvate conc. in media [2]: 0.00 g/L | Pyruvate conc. in media [3]: 0.00 g/L | Pyruvate conc. in media [4]: 0.06 g/L | Pyruvate conc. in media [5]: 0 g/L

O=C(O)CCC(=O)O [Succinate acid only]
Succinate conc. in media [1]: 5.17 g/L | Succinate conc. in media [2]: 0.61 g/L | Succinate conc. in media [3]: 0.51 g/L | Succinate conc. in media [4]: 0.5328 g/L | Succinate conc. in media [5]: 0.5042 g/L

CC(O)C(=O)O (stereo not shown) [lactic acid]
levels of organic acids in the media: not detectable

CC(=O)C(=O)O [pyruvate, pyruvic acid]
levels of organic acids in the media: not detectable
